The target in this assay is α9α10 subtype of the nicotinic acetylcholine receptor (nAChR) (rat) (UniProt P43144). Briefly: cell-based or functional assay.

For two substances, IC50 (activity on α9α10 nAChR, oocytes as in Example 1) results are on record in patent publication US20090203616A1.

For α-conotoxin PeIA (peptide), the IC50 (activity on α9α10 nAChR, oocytes as in Example 1) was 20 nM.

The substance α-conotoxin ArIB [V11L;V16A] (peptide) yielded an IC50 (activity on α9α10 nAChR, oocytes as in Example 1) above 10000 nM.
